Results of unrelated studies side by side (data: NIAID ChemDB).

All rows: growth or infection tests

Lines come from different laboratories, so protocols vary. a–b is a range or a potency band. ECn is the concentration giving n% inhibition of infection, replication or growth. An empty or dashed field is not shown. Fold resistance has wild type as its base.

compound | species | cell line | read-out | read by | changes | strain or isolate | value
CNC(=O)c1ccc(-n2c(=O)c3c(n4ncc(Cc5ccccc5)c24)CN(C(=O)c2ccc(Br)c(C(F)F)c2)CC3)cc1 | Hepatitis B virus | HepG2.117 | EC50 | luminescence |  |  | ≤0.05 µM
COc1ccc([C@@H](C)NC(=O)c2c3n(c(=O)n2-c2ccc(OC4CC4)cc2)C[C@@H](C)N(C(=O)c2ccc(Br)c(Cl)c2)C3)cc1 | Hepatitis B virus | HepG2.117 | EC50 | PCR |  |  | 0.5–5 µM
C[C@H]1Cc2c(n3ncc(CC4CC4)c3n(-c3ccc(-c4n[nH]nc4N)cc3)c2=O)CN1C(=O)c1ccc(Br)c(C(F)(F)F)c1 | Hepatitis B virus | HepG2.117 | EC50 | luminescence |  |  | 0.05–0.5 µM
Cc1onc(C(=O)N2c3cccc(O)c3NC3=C(C(=O)CC(C)(C)C3)C2c2ccc(OCc3ccccc3)cc2F)c1COc1ccccc1 | Hepatitis C virus |  | EC50 | luciferase / reporter gene / replicon |  | 1b | 1.39 µM
O=C(NCc1cccc2nccnc12)c1c2n(c(=O)n1-c1ccc(OCC(F)(F)F)cc1)CCN(C(=O)c1ccc(Br)c(Cl)c1)C2 | Hepatitis B virus | HepG2.117 | EC50 | PCR |  |  | <0.1 µM
CC1CCC(C(=O)N(c2cc(C#CC(C)(C)C)sc2C(=O)O)C2CCC(O)CC2)CC1 | Hepatitis C virus | Huh7 | fold resistance | luciferase | M423I | H77 (GT1a) | 10.5
CC(C)(Oc1ccc(CNC(=O)c2c3n(c(=O)n2-c2ccc(OCC(F)(F)F)cc2)CCN(C(=O)c2ccc(Br)c(Cl)c2)C3)c(F)c1)C(N)=O | Hepatitis B virus | HepG2.117 | EC50 | PCR |  |  | 0.1–0.5 µM
COC(=O)N[C@H](C(=O)N1CCCC1c1ncc(-c2ccc(-c3ccc(-c4cnc([C@@H]5CC(C)CN5C(=O)[C@@H](NC(=O)CO)C(C)C)[nH]4)cc3)cc2)[nH]1)C(C)C | Hepatitis C virus | ET | EC50 | luciferase |  | 1b Con1 | 0.0000098 µM
CNc1n[nH]c2cc(-n3c(=O)c4c(n5ncc(CC6CC6)c35)CN(C(=O)c3ccc(Br)c(C(F)(F)F)c3)CC4)ccc12 | Hepatitis B virus | HepG2.117 | EC50 | luminescence |  |  | ≤0.05 µM
COc1ccc(-n2c(C(=O)NCc3ccc(CC(=O)O)cc3)c3n(c2=O)CCN(C(=O)c2ccc(Br)c(Cl)c2)C3)cc1 | Hepatitis B virus | HepG2.117 | EC50 | PCR |  |  | >5 µM
CN(C)C(=O)CCC(=O)N1c2cccc(O)c2NC2=C(C(=O)CC(C)(C)C2)C1c1ccc(OCc2ccccc2)cc1Cl | Hepatitis C virus |  | EC50 | luciferase / reporter gene / replicon |  | 1b | 5.36 µM
C[C@H]1Cc2c(n3ncc(Cc4ccccc4)c3n(-c3ccc(-c4nn[nH]n4)cc3)c2=O)CN1C(=O)c1ccc(Br)c(C(F)(F)F)c1 | Hepatitis B virus | HepG2.117 | EC50 | luminescence |  |  | >5 µM
CC(C)C(=O)N1c2cccc(O)c2NC2=C(C(=O)CC(C)(C)C2)C1c1ccc(OCc2cc(F)cc(F)c2)cc1F | Hepatitis C virus |  | EC50 | luciferase / reporter gene / replicon |  | 1b | 3.86 µM
COCC1(N(C)C(=O)c2c3n(c(=O)n2-c2ccc(OC)cc2)CCN(C(=O)c2ccc(Cl)c(Cl)c2)C3)CC1 | Hepatitis B virus | HepG2.117 | EC50 | PCR |  |  | >5 µM
COC(=O)[C@@H](Cc1cnc[nH]1)NC(=O)CCC(=O)N1c2cccc(O)c2NC2=C(C(=O)CC(C)(C)C2)C1c1ccc(OCc2ccccc2)cc1Cl | Hepatitis C virus |  | EC50 | luciferase / reporter gene / replicon |  | 1b | 43.73 µM
C[C@H]1Cc2c(n3ncc(CC4CC4)c3n(-c3ccc(C(=O)N(C)CO)cc3)c2=O)CN1C(=O)c1ccc(Br)c(C(F)(F)F)c1 | Hepatitis B virus | HepG2.117 | EC50 | luminescence |  |  | >5 µM
CC1(C)CC(=O)C2=C(C1)Nc1c(O)cccc1N(C(=O)CC(=O)O)[C@H]2c1ccc(Oc2ccccc2Br)cc1Cl | Hepatitis C virus |  | EC50 | luciferase / reporter gene / replicon |  | 1b | 95.19 µM
O=C1NCCCn2c1c1n(c2=O)CCN(C(=O)Nc2ccc(F)c(Cl)c2)C1 | Hepatitis B virus | HepG2.2.15 | EC50 | PCR |  |  | >5 µM
Cc1n[nH]nc1-c1ccc(-n2c(=O)c3c(n4ncc(Cc5ccccc5)c24)CN(C(=O)c2ccc(Br)c(C(F)(F)F)c2)[C@@H](C)C3)cc1 | Hepatitis B virus | HepG2.117 | EC50 | luminescence |  |  | 0.05–0.5 µM
Cc1cc(C(=O)N2c3cccc(O)c3NC3=C(C(=O)CC(C)(C)C3)C2c2ccc(OCc3ccccc3)cc2F)nn1C | Hepatitis C virus |  | EC50 | luciferase / reporter gene / replicon |  | 1b | 1.04 µM
COc1ccc(-n2c(C(=O)NCc3ccc(OC(F)F)cc3)c3n(c2=O)CCN(C(=O)c2ccc(Br)c(Cl)c2)C3)cc1 | Hepatitis B virus | HepG2.117 | EC50 | PCR |  |  | 0.1–0.5 µM
CC(C)C(=O)N1c2cccc(O)c2NC2=C(C(=O)CC(C)(C)C2)[C@@H]1c1ccc(O[C@H](C)c2ccccc2)cc1F | Hepatitis C virus |  | EC50 | luciferase / reporter gene / replicon |  | 1b | 3.63 µM
C#CCc1cnn2c3c(c(=O)n(-c4ccc(C(=O)NC)cc4)c12)C[C@@H](C)N(C(=O)c1ccc(Br)c(C(F)(F)F)c1)C3 | Hepatitis B virus | HepG2.117 | EC50 | luminescence |  |  | ≤0.05 µM
O=C1NCCCn2c1c1n(c2=O)CCN(C(=O)c2ccc(Br)c(Cl)c2)C1 | Hepatitis B virus | HepG2.2.15 | EC50 | PCR |  |  | >5 µM
CC1(C)CC(=O)C2=C(C1)Nc1c(O)cccc1N(C(=O)c1cccc(C#N)c1)C2c1ccc(OCc2ccccc2)cc1F | Hepatitis C virus |  | EC50 | luciferase / reporter gene / replicon |  | 1b | 0.88 µM